Pooled drug test results. Numbers come from NIAID ChemDB, via PubChem.

All rows: tests in culture; species: Parainfluenza virus; strain or isolate: TYPE 3

An empty or dashed field is not shown.

structure	cells	measure	method	value
OC[C@H]1O[C@@H](c2cncc(Br)c2)[C@@H](O)[C@H]1O	VERO	EC50	cytopathic effect	≥100 µg/mL
N#CC1=CN(COCCO)S(=O)(=O)N=C1N	VERO	EC50	-	>400 µg/mL
CC(=O)O[C@H]1[C@@H](Oc2c(C)c(O)c3c(=O)cc(C)oc3c2C)O[C@H](CO)[C@@H](O)[C@@H]1O	HEP-2	EC50	cytopathic effect	20.8 µg/mL
C=C(N=CC)c1nc(-c2ccccc2)n(C2O[C@H](CO)[C@@H](O)[C@H](O)[C@H]2O)n1	VERO	EC50	cytopathic effect	>200 µg/mL
CC(=O)Nn1c(-c2cn(-c3ccccc3)nc2-c2ccccc2)n[nH]c1=S	VERO	EC50	cytopathic effect	>80 µg/mL
NC(=O)c1cncc([C@@H]2O[C@H](CO)[C@H](O)[C@@H]2O)c1	VERO	EC50	cytopathic effect	≥100 µg/mL
O=c1[nH]n2c(-c3cn(-c4ccccc4)nc3-c3ccccc3)nnc2s1	VERO	EC50	cytopathic effect	>80 µg/mL
CC1(CO)CCC(Cn2nnc3c(=O)[nH]c(N)nc32)C1(C)C	VERO	EC50	cytopathic effect	>200 µg/mL
N#Cc1cncc([C@H]2O[C@H](CO)[C@H](O)[C@@H]2O)c1	VERO	EC50	cytopathic effect	≥100 µg/mL
CC(=O)OCCOCN1C(C)=CC(N)=[N+](c2ccccc2)S1(=O)=O	VERO	EC50	-	>400 µg/mL
CC1(CO)CCC(Cn2cnc3c(Cl)nc(N)nc32)C1(C)C	VERO	EC50	cytopathic effect	>200 µg/mL
CC(=O)OCCOCN1C(N)=CC(N)=NS1(=O)=O	VERO	EC50	-	>400 µg/mL
CC=NC(=N)c1nc(-c2ccc(C)cc2)n(Cc2ccccc2)n1	VERO	EC50	cytopathic effect	>10 µg/mL
NC(=O)c1cncc([C@H]2O[C@H](CO)[C@H](O)[C@@H]2O)c1	VERO	EC50	cytopathic effect	≥100 µg/mL
S=c1[nH]n2c(-c3cn(-c4ccccc4)nc3-c3ccccc3)nnc2s1	VERO	EC50	cytopathic effect	>80 µg/mL
NC(=O)c1cncc([C@H]2O[C@H](CO)[C@@H](O)[C@@H]2O)c1	VERO	EC50	cytopathic effect	≥100 µg/mL
CCOC(=O)CSc1nnc(-c2cn(-c3ccccc3)nc2-c2ccccc2)n1N	VERO	EC50	cytopathic effect	>16 µg/mL
O=P1(O)OCC2O[C@@H](n3cnc4c(=S)nc[nH]c43)[C@H](O)C2O1	-	MIC	-	3.2–10 µg/mL
C=CCc1nc(C)n2c(=O)[nH]cnc12	VERO	EC50	cytopathic effect	>200 µg/mL
N#CC1=CSc2nnc(-c3cn(-c4ccccc4)nc3-c3ccccc3)n2N=C1N	VERO	EC50	cytopathic effect	>16 µg/mL
Nc1ccn(C(CF)CCCO)c(=O)n1	VERO	EC50	cytopathic effect	>400 µg/mL
C=C(N=CC)c1nc(-c2cccc(C)c2)n(C2O[C@H](CO)[C@@H](O)[C@H](O)[C@H]2O)n1	VERO	EC50	cytopathic effect	>100 µg/mL
NC(=S)c1cncc([C@H]2O[C@H](CO)[C@@H](O)[C@@H]2O)c1	VERO	EC50	cytopathic effect	≥100 µg/mL
CC(=O)OCCOCN1C(=N)/C(=C(\C)O)C(N)=NS1(=O)=O	VERO	EC50	-	>400 µg/mL
C=CCc1nc(C)n2c(=O)[nH]c(=S)[nH]c12	VERO	EC50	cytopathic effect	>200 µg/mL
CC=NC(=N)c1nc(-c2cccc(C)c2)n(C/C=C/c2ccccc2)n1	VERO	EC50	cytopathic effect	>10 µg/mL
c1ccc(-c2nn3c(-c4cn(-c5ccccc5)nc4-c4ccccc4)nnc3s2)cc1	VERO	EC50	cytopathic effect	>16 µg/mL
Nc1ncnc2c1ncn2C(CF)CCCO	VERO	EC50	cytopathic effect	>400 µg/mL
CC1(CO)CCC(Cn2cnc3c(N)nc(N)nc32)C1(C)C	VERO	EC50	cytopathic effect	>40 µg/mL
S=c1[nH]nc(-c2cn(-c3ccccc3)nc2-c2ccccc2)o1	VERO	EC50	cytopathic effect	>16 µg/mL
O=P1(O)OCC2O[C@@H](n3cnc4c(SCc5ccccc5)ncnc43)[C@H](O)C2O1	-	MIC	-	320 µg/mL
Nc1nc2c(ncn2CCCC(O)CF)c(=O)[nH]1	VERO	EC50	cytopathic effect	>400 µg/mL
C=CCc1ncn2c(=O)[nH]c(NC(C)=O)nc12	VERO	EC50	cytopathic effect	>200 µg/mL
CCOC(=O)C1=CN(COCCO)S(=O)(=O)NC1=O	VERO	EC50	-	>400 µg/mL
NC(=S)c1cncc([C@@H]2O[C@H](CO)[C@@H](O)[C@@H]2O)c1	VERO	EC50	cytopathic effect	≥100 µg/mL

5 of the rows above, restated:

{"structure": "OC[C@H]1O[C@@H](c2cncc(Br)c2)[C@@H](O)[C@H]1O", "cells": "VERO", "measure": "EC50", "method": "cytopathic effect", "value": "≥100 µg/mL"}
{"structure": "CC(=O)O[C@H]1[C@@H](Oc2c(C)c(O)c3c(=O)cc(C)oc3c2C)O[C@H](CO)[C@@H](O)[C@@H]1O", "cells": "HEP-2", "measure": "EC50", "method": "cytopathic effect", "value": "20.8 µg/mL"}
{"structure": "CC(=O)Nn1c(-c2cn(-c3ccccc3)nc2-c2ccccc2)n[nH]c1=S", "cells": "VERO", "measure": "EC50", "method": "cytopathic effect", "value": ">80 µg/mL"}
{"structure": "O=P1(O)OCC2O[C@@H](n3cnc4c(=S)nc[nH]c43)[C@H](O)C2O1", "measure": "MIC", "value": "3.2–10 µg/mL"}
{"structure": "O=c1[nH]n2c(-c3cn(-c4ccccc4)nc3-c3ccccc3)nnc2s1", "cells": "VERO", "measure": "EC50", "method": "cytopathic effect", "value": ">80 µg/mL"}

Neighbouring rows are from separate reports. a–b is a range or a potency band. ECn is the concentration giving n% inhibition of infection, replication or growth.